PubChem BioAssay AID504761 | Drosophila RNAi Screening Center, 2011
The screen tested about 22,000 reagents; shown is a random part of those that have a named target and a result. Of all reagents, 116 (0.52%) got an active call. 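Calls depend on retest data that are not deposited; infection was ranked per plate without normalising between plates; the unit of the infection score is not given.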 The raw values are shown without normalisation. Reagent sequences are not shown. The record does not give: the amount of reagent, the time to read-out.

Aim: 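Fly genes whose silencing reduces dengue virus type 2 infection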 (primary screen)
System: D.Mel-2 cells from Drosophila
Reagent: long dsRNA against Drosophila genes
Treatment: infection with dengue virus type 2; dose and infection time not stated
Detection: 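Per well on two replicate plates, imaging gave the percent of cells positive for viral envelope protein, ranked by infection, and a nuclear count of cells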
Direction: infection score: higher = more virus-infected cells; cell count: higher = more cells in the well
Hit rule: 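Low infection ranks in the two replicates (chance level up to 0.065) followed by a retest with a 1.5-fold or larger significant decrease, p below 0.05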
Calls: active = confirmed: knock-down lowers infection; inactive = not picked or not confirmed

predicted target | dsRNA | infection score, replicate 1 | infection score, replicate 2 | cell count, replicate 1 | cell count, replicate 2 | Call
CG13794 | DRSC02298 | 12.2 | 0.8 | 6255 | 628 | inactive
CG13794 | DRSC25419 | 11.7 | 15.3 | 6005 | 5760 | inactive
dsx-c73A (doublesex cognate 73A) | DRSC09435 | 0.41 | 0.7 | 6129 | 6245 | inactive
dsx-c73A (doublesex cognate 73A) | DRSC09914 | 2.44 | 3.38 | 6023 | 6542 | inactive
dsx-c73A (doublesex cognate 73A) | DRSC10429 | 2.31 | 14.2 | 6323 | 5702 | inactive
Obp19b (Odorant-binding protein 19b) | DRSC20536 | 6.11 | 4.44 | 4939 | 6329 | inactive
Obp19b (Odorant-binding protein 19b) | DRSC28944 | 2.38 | – | 1091 | 439 | inactive
nonC (no-on-and-no-off transient C) | DRSC18366 | 31.3 | 4.09 | 5657 | 6584 | inactive
nonC (no-on-and-no-off transient C) | DRSC18367 | 4.24 | 5.63 | 6059 | 6378 | inactive
Syngr (Synaptogyrin) | DRSC06003 | 1.77 | 3.81 | 6254 | 6580 | active
Faa (Fumarylacetoacetase) | DRSC08451 | 15.2 | 15.9 | 5249 | 5016 | inactive
Ilp1 (Insulin-like peptide 1) | DRSC10174 | 0.26 | 2.73 | 6500 | 6008 | inactive
CG30096 | DRSC21744 | 8.25 | 6.83 | 6569 | 5853 | inactive
Shmt (Serine hydroxymethyl transferase) | DRSC18264 | 3.41 | 7.09 | 5980 | 6459 | inactive
Hat1 (Histone acetyltransferase 1) | DRSC12298 | 2.38 | 11.3 | 6400 | 6420 | inactive
Hat1 (Histone acetyltransferase 1) | DRSC29235 | 13.6 | 15.7 | 4856 | 5385 | inactive
rept (reptin) | DRSC11388 | 28.8 | 15.6 | 3078 | 3448 | inactive
rept (reptin) | DRSC27183 | 20.8 | 33.4 | 2708 | 4040 | inactive
CG4575 (retired record) | DRSC18372 | 35.7 | 19.9 | 4927 | 5765 | inactive
Atxn7 (Ataxin 7) | DRSC23138 | 1.61 | 6.49 | 6895 | 7398 | inactive
CG30495 | DRSC06703 | 3.4 | 11.4 | 6524 | 3756 | inactive
CG30495 | DRSC26893 | 11.6 | 5.84 | 6411 | 6419 | inactive
sav (salvador) | DRSC14681 | 4.03 | 2.41 | 6484 | 6629 | inactive
sav (salvador) | DRSC14682 | 3.52 | 0.37 | 6781 | 7222 | inactive
CR11235 (pseudo) | DRSC20480 | 12.3 | 10.9 | 5960 | 5962 | inactive
CR11235 (pseudo) | DRSC28870 | 2.33 | 3.59 | 473 | 529 | inactive
prim (primacord) | DRSC06575 | – | – | 388 | 506 | inactive
CG11159 | DRSC06050 | 5.49 | 1.44 | 6214 | 6062 | inactive
CG12241 | DRSC14481 | 4.95 | 21.6 | 1475 | 5686 | inactive
CG12241 | DRSC26642 | 4.45 | 2.44 | 6605 | 6242 | inactive
Nagk (N-acetylglucosamine kinase) | DRSC15994 | 15.9 | 13.4 | 5895 | 5664 | inactive
CtsK2 (Cathepsin K2) | DRSC06897 | 3.63 | 10.7 | 6828 | 6490 | inactive
CtsK2 (Cathepsin K2) | DRSC25927 | 5.34 | 3.34 | 5691 | 6802 | inactive
CG14631 | DRSC17792 | 1.82 | 0.38 | 6223 | 6310 | inactive
CG14631 | DRSC17941 | 1.58 | 0.47 | 5954 | 6128 | inactive

Called active, of those listed so far:
predicted target | dsRNA | infection score, replicate 1 | infection score, replicate 2 | cell count, replicate 1 | cell count, replicate 2 | Call
Syngr (Synaptogyrin) | DRSC06003 | 1.77 | 3.81 | 6254 | 6580 | active

The results go on.
predicted target | dsRNA | infection score, replicate 1 | infection score, replicate 2 | cell count, replicate 1 | cell count, replicate 2 | Call
Cys (Cystatin-like) | DRSC16637 | 5.98 | 9.09 | 6351 | 6346 | inactive
Cys (Cystatin-like) | DRSC27796 | 10.6 | 9.23 | 6758 | 6763 | inactive
CG16786 | DRSC04281 | 2.34 | 9.94 | 6278 | 4255 | inactive
CG16758 | DRSC07984 | 0.04 | 0.19 | 5180 | 5825 | inactive
CG16758 | DRSC08492 | 9.81 | 9.19 | 6695 | 6691 | inactive
CG16758 | DRSC28475 | 7.93 | 18.6 | 3152 | 5193 | inactive
CG32638 | DRSC18968 | 1.88 | 1.63 | 6122 | 6381 | inactive
SpdS (Spermidine Synthase) | DRSC16408 | 1.23 | 15.5 | 5607 | 5616 | inactive
Acyp2 (Acylphosphatase 2) | DRSC15336 | 7.37 | 6.81 | 5743 | 6591 | inactive
CG7326 | DRSC20037 | 0.37 | 0.54 | 6178 | 5741 | inactive
l(2)37Cd (lethal (2) 37Cd) | DRSC02069 | 3.55 | 8.43 | 6395 | 6286 | inactive
emp (epithelial membrane protein) | DRSC04019 | 0.47 | 0.15 | 6365 | 5811 | inactive
emp (epithelial membrane protein) | DRSC04683 | 5.69 | 49.3 | 6375 | 5084 | inactive
CG9997 | DRSC16591 | 1.92 | 11.5 | 6566 | 5501 | inactive
CG9997 | DRSC29613 | – | 10.6 | 366 | 5712 | inactive
Arl4 (ADP ribosylation factor-like 4) | DRSC17156 | 5.06 | – | 1423 | 431 | inactive
wnd (wallenda) | DRSC11046 | 4.35 | 11.2 | 6367 | 7031 | inactive
wnd (wallenda) | DRSC21373 | 1.94 | 2.27 | 6129 | 6401 | inactive
Taf10b (TBP-associated factor 10b) | DRSC26605 | 4.19 | 2.84 | 6494 | 6412 | inactive
CG32263 | DRSC22431 | 0.98 | 0.85 | 6040 | 6386 | inactive
CG32263 | DRSC29009 | 11.1 | 11.1 | 2144 | 6545 | inactive
CG17292 | DRSC02594 | 1.93 | 2.67 | 6535 | 5959 | inactive
CG17292 | DRSC27746 | 6.35 | 7.88 | 6838 | 6889 | inactive
